Compound potency records, mixed from different reports. Data source: NIAID ChemDB in PubChem.

Shared fields: tests in culture; agent: Mouse cytomegalovirus

Inhibition is in % at the dose shown (toxicity tests: loss of growth or viability). Blank or dashed fields: not listed here. ECn is the concentration giving n% inhibition of infection, replication or growth. Neighbouring rows are from separate reports.

SMILES,strain or isolate,cells,measure,method,dose,value
Nc1ccn(C[C@@H](CO)OCP(=O)(O)O)c(=O)n1,Smith (resistant),HFF,EC50,plaque count,,0.31 µM
CCCCCCCCCCCCOCCCOP(=O)(O)CO[C@H](CO)Cn1ccc(N)nc1=O,,MEF,EC50,plaque count,,0.01 µM
CCCCCOc1nc(N)nc2c1ncn2/C=C1/C[C@@H]1CO,,MEF,EC50,plaque count,,1.4 µM
Cc1nc2ccc(CN(C)c3ccc(C(=O)N[C@@H](CCC(=O)O)C(=O)O)s3)cc2c(=O)[nH]1,,,inhibition,virus yield,0.01 µM,90%
CCCCCCCCCCCCCCCCOP1(=O)CO[C@@H](Cn2ccc(N)nc2=O)CO1,,MEF,EC50,plaque count,,0.13 µM
O=C(NO)c1ccc(O)c(O)c1,SMITH,,EC50,plaque count,,20.71 µM
Nc1nc(OCC2CC2)c2ncn(/C=C3/C[C@@H]3CO)c2n1,,MEF,EC50,plaque count,,0.3 µM
CN(C)c1cccc2c(S(=O)(=O)Nc3ccc(NC(=O)C(C)(C)CO)cc3)cccc12,SMITH (WILD TYPE),HFF,EC50,plaque count,,0.05 µM
O=C(NCc1ccc(Cl)cc1)c1c[nH]c2c(F)cccc2c1=O,,,EC50,plaque count,,6.8 µM
CCCCCCCCCCCCOCCCOP1(=O)CO[C@@H](Cn2ccc(N)nc2=O)CO1,,MEF,EC50,plaque count,,0.013 µM
Nc1nc2c(ncn2[C@@H]2C[C@H](CO)[C@H]2CO)c(=O)[nH]1,Smith (resistant),HFF,EC50,plaque count,,2.45 µM
CCC(=O)C(CCCCCCOc1ccc(OC)cc1Cl)C(=O)CC,SMITH,MEF,inhibition,plaque count,5 µg/mL,83%
Nc1ccn(C[C@@H](CO)OCP(=O)(O)O)c(=O)n1,,MEF,EC50,plaque count,,<0.09 µM
CCCOc1nc(N)nc2c1ncn2/C=C1/C[C@@H]1CO,,MEF,EC50,plaque count,,<0.1 µM

Repeating the first 2 entries:

SMILES,strain or isolate,cells,measure,method,dose,value
Nc1ccn(C[C@@H](CO)OCP(=O)(O)O)c(=O)n1,Smith (resistant),HFF,EC50,plaque count,,0.31 µM
CCCCCCCCCCCCOCCCOP(=O)(O)CO[C@H](CO)Cn1ccc(N)nc1=O,,MEF,EC50,plaque count,,0.01 µM